Measured values taken from patent US20250179125A1 (University of Washington, priority 2021, published 2025).
Square brackets hold non-standard residues; d marks the D form. Peptide text beside a SMILES is read from it.

Test: Peptide grafting to PDA-coated polypropylene plates (BCA assay)
Conditions: PDA-coated 96 well PP plates, same concentration

CSCC[C@H](NC(=O)[C@@H](CCCCN)NC(=O)[C@H](CC(C)C)NC(=O)[C@@H](CC(N)=O)NC(=O)[C@H](CCSC)NC(=O)[C@H](NC(=O)[C@H](Cc1c[nH]c2ccccc12)NC(=O)CNC(=O)[C@H](CO)NC(=O)[C@H](Cc1ccc(O)cc1)NC(=O)[C@H](CCC(=O)O)NC(=O)[C@H](CC(N)=O)NC(=O)[C@H](CCSC)NC(=O)[C@@H](Cc1c[nH]c2ccccc12)NC(=O)[C@H](CO)NC(=O)[C@@H](CC(C)C)NC(=O)[C@H](CC(N)=O)NC(=O)[C@@H](CCSC)NC(=O)[C@H](CCC(=O)O)NC(=O)CNC(=O)[C@H](CCCNC(=N)N)NC(C)=O)[C@H](C)O)C(=O)NCC(=O)N[C@@H](CCCNC(=N)N)C(N)=O [AP90, Ac-RGEmNlSwMNEYSGWtMnLkMGR-NH2] (Ac-RGE[dM]N[dL]S[dW]MNEYSGW[dT]M[dN]L[dK]MGR-NH2)
coupling efficiency: 46%
